Only a part is listed here, and it is no random draw. Calls of active or inactive are those of the source. Rule as the data show it: active = fluorescence intensity above about 16000; inconclusive = no clear call, values can overlap the other calls; inactive = below that.
Assay: counter-screen for toxin protease inhibitors: compound fluorescence, primary screen, artefact control for toxin protease inhibitor project, biochemical, multiplex microsphere, HTS (AID 624483); also: test concentration not given here
Conditions: compound autofluorescence counterscreen, microsphere flow cytometry; active compounds read high

| Structure (SMILES) | fluorescence intensity |
| --- | --- |
| N#CCCN(C(=O)COC(=O)C(O)(c1ccccc1)c1ccccc1)c1ccc(F)cc1 | active: 63600 |
| O=P1(Nc2ccc(Br)cn2)COc2ccccc2OC1 | active: 19500 |
| CCc1nc2c(n1)c1c(non1O)c1c2no[n+]1[O-] | active: 23000 |
